PubChem BioAssay AID1259414 – Drosophila RNAi Screening Center – 2018
Aim: 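Host factors increasing or decreasing Wolbachia levels in cultured fly cells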 (primary screen). Cell system: Drosophila JW18 cells infected with Wolbachia. Reagents: long dsRNA against Drosophila genes, 0.25 µg dsRNA per well of a 384-well plate. Duration: 5 days. Challenge: cells persistently infected with Wolbachia before knock-down; no added drug. Measurement: 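Automated imaging of bacterial rRNA staining divided by host cell count, reported as plate-normalised robust z-score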. Scale: Wolbachia per cell robust z: higher = more Wolbachia per host cell than the plate typical. Active means: 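Active if absolute robust z reaches 1.5 in two or more of three replicates, leaving out multi- or no-target dsRNAs, genes unexpressed in JW18 and A1 wells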.
In all, the deposit lists about 24,000 reagents; this is an unselected part of those that have a named target and a result. Of all reagents, about 1,210 (5%) got an active call. 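Inactive calls also include excluded dsRNAs with several or no targets, genes unexpressed in JW18, and well A1, regardless of score.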 Unmarked entries are inactive. Reagents against one gene are numbered here. Names joined by + are all predicted targets of the reagent. No sequences are given here.

The first 5 entries as a preview:
target gene | reagent no. | Wolbachia per cell robust z, rep 1 | Wolbachia per cell robust z, rep 2 | Wolbachia per cell robust z, rep 3
AQP (aquaporin) | 1 | 0.223 | 0.599 | -2.13
His3:CG33809 + His3:CG31613 + His3:CG33842 + 20 more | 1 | 5.31 | 1.9 | 6.36
CG10366 | 1 | -1.23 | -1.09 | -0.889
CG10366 | 2 | -0.927 | -1.6 | -0.148
CG17450 + CG32819 + CG32820 | 1 | -1.94 | 0.309 | 0.198

The list itself, from the first entry:
target gene | reagent no. | Wolbachia per cell robust z, rep 1 | Wolbachia per cell robust z, rep 2 | Wolbachia per cell robust z, rep 3
AQP (aquaporin) | 1 | 0.223 | 0.599 | -2.13
His3:CG33809 + His3:CG31613 + His3:CG33842 + 20 more | 1 | 5.31 | 1.9 | 6.36
CG10366 | 1 | -1.23 | -1.09 | -0.889
CG10366 | 2 | -0.927 | -1.6 | -0.148
CG17450 + CG32819 + CG32820 | 1 | -1.94 | 0.309 | 0.198
Smvt (Sodium-dependent multivitamin transporter) | 1 | -2.17 | -1.57 | 0.35
Miro (Mitochondrial Rho) | 1 | -0.155 | -0.204 | 0.393
Gpdh1 (Glycerol-3-phosphate dehydrogenase 1) | 1 | -0.108 | 1.56 | 0.0872
Gpdh1 (Glycerol-3-phosphate dehydrogenase 1) | 2 | 0.017 | -0.17 | -0.826
ACXD (Adenylyl cyclase X D) | 1 | 0.924 | 0.818 | 0.243
ACXD (Adenylyl cyclase X D) | 2 | -0.381 | -0.626 | -8.32
robo2 (roundabout 2) | 1 | 1.14 | -0.672 | -0.817
robo2 (roundabout 2) | 2 | -4.9 | -0.123 | -0.459
robo2 (roundabout 2) | 3 | -0.0861 | -0.829 | -0.625
robo2 (roundabout 2) | 4 | 0.53 | 0.661 | 0.679
CG33710 | 1 | -0.174 | -1.23 | -0.553
Chrac-14 + mus201 | 1 | 0.643 | -0.167 | -7.36
CG30413 | 1 | -0.339 | 0.132 | -0.559
CG30413 | 2 | -0.98 | 1.12 | -4.12
spz3 (spatzle 3) | 1 | -3.55 | 0.378 | 1.12
spz3 (spatzle 3) | 2 | -1.85 | 0.658 | -0.868
CG18789 + CG18787 | 1 | -1.66 | -2.4 | -0.936
CG43373 | 1 | 1.26 | 0.281 | -0.078
CG43373 | 2 | 0.0703 | 0.0443 | 0.5
CG43373 | 3 | -1.23 | -2.33 | -0.00643
Ugt36D1 (UDP-glycosyltransferase family 36 member D1) | 1 | 0.137 | 0.242 | 0.481
CG6592 | 1 | 2.07 | 1.31 | 0.936
CG3124 | 1 | 0.178 | 0.999 | 0.961
CG3124 | 2 | 0.17 | 1.07 | -0.854
CG14042 + SP555 | 1 | 0.554 | -8.02 | 0.681
CG3655 | 1 | -0.0276 | -0.648 | 0.256
CG3655 | 2 | -0.453 | -0.225 | 0.255
CG3655 | 3 | 0.297 | 0.223 | -0.975
CG32110 | 1 | 0.29 | -1.69 | 0.182
CG5885 | 1 | 1.45 | 0.656 | -6.21
CG5885 | 2 | -1.58 (active) | -3.59 | -2.48
Bap170 (Brahma associated protein 170kD) | 1 | -0.791 | -0.0282 | -1.38
Bap170 (Brahma associated protein 170kD) | 2 | 0.0844 | 0.483 | -1.51
Bap170 (Brahma associated protein 170kD) | 3 | -0.864 | -0.63 | -0.236
CG6661 + asRNA:CR42871 | 1 | 0.99 | -0.335 | 1.06
CG6661 + asRNA:CR42871 | 2 | -1.62 | -6.73 | 0.662
CG16790 | 1 | 0.167 | -0.0109 | 0.536
Gabat (gamma-aminobutyric acid transaminase) | 1 | 1.14 | 0.936 | 0.226
Prx6b + Prx6c + CG12896 | 1 | 0.398 | 0.356 | 0.381
CG13557 | 1 | -0.903 | -1.57 | -1.13
ScpX | 1 | -6.54 | -0.615 | 0.391
CG1394 | 1 | 0.467 | 0.355 | 0.596
CG1394 | 2 | -0.127 | 0.378 | -0.721
CG32052 | 1 | -1.62 | 0.666 | -6.66
CG32052 | 2 | -5.58 | -1.17 | -1.42
snoRNA:660 + Act57B | 1 | 1.01 | -1.82 | 0.948
Ero1L (Endoplasmic reticulum oxidoreductin-1-like) | 1 | -1.21 | -0.0637 | -0.288
Tsp26A (Tetraspanin 26A) | 1 | 0.0406 | -3.1 | 0.0304
Kaz1-ORFB | 1 | -1.3 | -0.0268 | 0.0423
Ipk1 (Inositol phosphate kinase 1) | 1 | 0.021 | 0.421 | 0.282
Ipk1 (Inositol phosphate kinase 1) | 2 | 0.495 | -0.378 | 0.192
Ipk1 (Inositol phosphate kinase 1) | 3 | 0.332 | 0.899 | 0.771
CG34125 | 1 | 0.0117 | -0.633 | -0.333
CG6833 | 1 | -0.213 | -0.229 | -1.76
CG6833 | 2 | 0.778 | 1.35 | -0.873
CG14985 | 1 | -0.0652 | -0.00606 | -1.71
CG11999 | 1 | 0.643 | -0.397 | 0.872
osp (outspread) | 1 | -4.08 | 0.184 | 0.0447
osp (outspread) | 2 | 0.38 | 0.911 | -0.102
Epg5 (ectopic P-granules autophagy protein 5) | 1 | -5.23 (active) | 1.63 | -2.79
CG15256 | 1 | -0.591 | 0.727 | 0.578
CG30148 | 1 | 1.03 | 0.843 | 0.783
Jhedup (Juvenile hormone esterase duplication) | 1 | 0.305 | 0.851 | -2.02
